Laboratory results as given in article PMC7330483, “Identification of a Broad-Spectrum Viral Inhibitor Targeting a Novel Allosteric Site in the RNA-Dependent RNA Polymerases of Dengue Virus and Norovirus” (Frontiers in Microbiology, 2020).

Tested on: hNV-RdRp
Experiment: hNV-RdRp inhibition assay (PicoGreen dsRNA formation)
Assay type: biochemical, Norovirus GII.4 Sydney 2012
Conditions: dose response

| Compound | hill slope of hNV RdRp inhibition |
| --- | --- |
| O=c1[nH]c2ccccc2n1C1CCN(Cc2ccc(-c3nc4cc5[nH]cnc5cc4nc3-c3ccccc3)cc2)CC1 [RAI-5, AKT inhibitor VIII] | 1.19 |
| CN1CCN(c2ccc(C(=O)Nc3n[nH]c4ccc(Cc5cc(F)cc(F)c5)cc34)c(NC3CCOCC3)c2)CC1 [RAI-13, Entrectinib] | 2.94 |
| Cc1ccc(NC(=O)Nc2cc(C(F)(F)F)ccc2F)cc1Nc1ccc2c(c1)NC(=O)/C2=C\c1ccc[nH]1 [RAI-14, GNF-5837] | 1.88 |
